The source of these data is PMC11336141.

The structures appear in SMILES notation. “Also recorded” adds a separate entry of the source.

The test system of one assay is Dr-sstr2a. Nature of the assay: PRESTO-Tango β-arrestin recruitment assay, Dr-sstr2a. In kind it is cell-based, zebrafish (Danio rerio). To be noted: for pEC50: Dr-sstr2a, Fig. S15D.
The test system of another assay is Dr-sstr2b. Nature of the assay: PRESTO-Tango β-arrestin recruitment assay, Dr-sstr2b. The following applies: for pEC50: Dr-sstr2b, Fig. S15D. In kind it is cell-based, zebrafish (Danio rerio). Background: Recruitment of arrestin is a read-out of receptor activation apart from second messengers.
Setting [1] is: Table S9, additional isolated venom material for #32-20.

The term pEC50 denotes the EC50 on a negative log10 scale, so that one unit is a factor of ten. A lower pEC50 goes with a high EC50. As a reminder, the EC50 is the concentration at which the effect is half-maximal. A high value points to a need for much substance.

Consider `CC(C)C[C@H](NC(=O)[C@H](CCCNC(=N)N)NC(=O)[C@H](CCC(N)=O)NC(=O)[C@H](CCC(=O)O)NC(=O)[C@@H]1CCCN1C(=O)[C@H](C)NC(=O)[C@@H]1C[C@@H](O)CN1C(=O)[C@@H](NC(=O)[C@@H](NC(=O)[C@H](CC(C)C)NC(=O)[C@H](CC(C)C)NC(=O)[C@@H](NC(=O)[C@H](C)NC(=O)[C@H](CC(=O)O)NC(=O)[C@H](CC(C)C)NC(=O)[C@H](CC(C)C)NC(=O)[C@@H](NC(=O)[C@H](CC(=O)O)NC(=O)[C@@H](NC(=O)[C@@H]1CCC(=O)N1)[C@@H](C)O)C(C)C)[C@@H](C)O)[C@@H](C)O)[C@@H](C)O)C(=O)N[C@@H](Cc1ccccc1)C(=O)N[C@H]1CSSC[C@@H](C(=O)N[C@@H](Cc2c[nH]c3ccccc23)C(=O)N2C[C@H](O)C[C@H]2C(=O)N[C@@H](CCCNC(=N)N)C(=O)N2C[C@H](O)C[C@H]2C(=O)N[C@@H](Cc2ccc(O)cc2)C(=O)N2CCC[C@H]2C(=O)N[C@@H](Cc2c[nH]c3ccccc23)C(N)=O)NC(=O)[C@H](CO)NC(=O)[C@H](CCCCN)NC(=O)[C@@H](Cc2c[nH]c3ccccc23)NC(=O)[C@H](Cc2ccccc2)NC1=O` [des-glyco nG1], for which the pEC50 in the assay with Dr-sstr2a (replicate 1) was found to be 6.189; in the assay with Dr-sstr2a (replicate 2), 6.158; with Dr-sstr2a (replicate 3) it was 6.79; in the assay with Dr-sstr2a (replicate 4), 6.732; in the assay with Dr-sstr2a (replicate 5), 6.812; with Dr-sstr2a (replicate 6), 6.765. In addition, the pEC50 in the assay with Dr-sstr2b (replicate 1) amounted to 8.461; in the assay with Dr-sstr2b (replicate 2), 7.949; with Dr-sstr2b (replicate 3) it was 8.77; in the assay with Dr-sstr2b (replicate 4), 8.8; with Dr-sstr2b (replicate 5), 9.741; with Dr-sstr2b (replicate 6), 9.322. Besides, in the assay on Dr-sstr2a (PRESTO-Tango, HTLA cells, listed as Des-glyco nG1), the “activation of Dr-sstr2a in words” value is given as “partial agonist at Dr-sstr2a; also recorded: only partially rescued the potent activation of the Dr-sstr2a”. For the same compound, the “Hill Slope” value came to 0.95 ± 0.13 with Dr-sstr2a (Table S9) and 0.53 ± 0.10 with Dr-sstr2b (Table S9). For the same compound, the “Span ± S.E.M.” value in the assay on Dr-sstr2a (Table S9) was found to be 65.90 ± 4.87; in the assay with Dr-sstr2b (Table S9), 96.18 ± 8.60. The EC50 in the assay with Dr-sstr2a (setting [1]) was 0.296 µM. Besides, the “Emax ± S.E.M.” value with Dr-sstr2a (Table S9, relative to SS-14) is 68.55 ± 4.56%; in the assay on Dr-sstr2b (Table S9, relative to SS-14), 92.57 ± 3.75%. The “pEC50 ± S.E.M.” value in the assay with Dr-sstr2b (setting [1]) worked out at 8.71 ± 0.14.
